Laboratory results: patent US12440498B2 (priority 2020, dated 2025)

What was measured:
[1] = tested on: highly-pathogenic virus A/H5N1 sensitive or resistant to oseltamivir; details: cited from earlier work
A/H1N1 WT virus = details: baloxavir increasing 1 nM to 128 nM; diltiazem constant 25 μM; alone or in combination
[2] = tested on: recombinant A/H1N1 pdm09 wildtype (WT); details: diltiazem 90 μM (up to 48 h), baloxavir 10 nM (48 h and 72 h post-infection)
[3] = tested on: A/H1N1 pdm09 (A/Lyon/969/2009 H1N1); details: diltiazem 90 μM, baloxavir 10 nM, combination; 48 h and 72 h post-infection
[4] = tested on: A/H3N2 (A/Texas/50/2012 H3N2); details: diltiazem 90 μM, baloxavir 10 nM, combination; monotherapies up to 48 h post-infection

| Structure (SMILES) | protection of infected mice [1] | emergence of an A/H1N1 virus with the baloxavir resistance phenotype (A/H1N1 WT virus) | transepithelial resistance (TEER), integrity of infected epithelia [2] | transepithelial resistance (TEER), integrity of infected epithelia [3] | transepithelial resistance (TEER), integrity of infected epithelia [4] |
| --- | --- | --- | --- | --- | --- |
| NC(=O)c1nc(F)c[nH]c1=O [favipiravir] | effective to protect mice | – | – | – | – |
| COc1ccc([C@@H]2Sc3ccccc3N(CCN(C)C)C(=O)[C@@H]2OC(C)=O)cc1.Cl [diltiazem] | – | did not induce the emergence | remain stable | remain stable | remain stable |
